Experiments:
Neuro-2a cells = experiment: Suspension-cell tube assay (Neuro-2a in agar, methylene blue decolorization)
[1] = test system: human neuroblastoma SK-N-MC; experiment: Cell bioassay in human neuroblastoma SK-N-MC cells; details: FIG. 9A
[2] = test system: Mouse neuroblastoma cells Neuro-2a

Row | Substance | amount detected in suspension-cell tube assay (Neuro-2a cells; 4 hour, ouabain/veratridine present, FIG. 15) [ng] | methylene blue decolorization in the presence of ouabain and veratridine (Neuro-2a cells; tube A, 4 hours) | methylene blue decolorization in the absence of ouabain/veratridine (Neuro-2a cells; tube B) | cytotoxicity in the presence of ouabain and veratridine [1] | cytotoxicity in the absence of ouabain/veratridine ([2]; no ouabain/veratridine, highest concentration 10 ng/10 μl, 18 hours exposure, FIG. 4B) | cytotoxicity at 18 hours ([2]; ouabain/veratridine present, 18 hours) | earliest time at which titratable cytotoxicity was observed ([2]; ouabain/veratridine present, FIG. 4A) [h] | ID50 7 HR ([2]; positive control, 7 hr, three runs) [ng] | ID90 22 HR ([2]; positive control, 22 hr, three runs) [ng]
1 | CTX3C | 0.15 | inhibited decolorization of methylene blue | lack of effect | dose-dependant cytotoxicity | – | – | – | – | –
2 | brevetoxin PbTx-1 | – | – | – | – | not cytotoxic | essentially total | 4 | 0.9 | 0.8

From patent publication US5858687A (priority 1995, dated 1999)
